# Assay results published in paper PMC5682278, “The vaccinia virus DNA polymerase structure provides insights into the mode of processivity factor binding” (2017).
# Biological target: A20 C-ter (last 123 residues of VACV A20) (vaccinia virus (VACV)) (UniProt P20995)
# Assay: SPR
substance,measurement,value
E9-578-582 (Leu578Ala + Ile582Ala) (from UniProt P20509 1-1006) (enzyme),Kd,390 nM
